Test results reported in patent US10207993B2 (priority 2014, dated 2019).

Tested on: H37Rv
Experiment: Inhibition of Mycobacterium colony growth in THP1 macrophages (CFU counts)
Assay type: cell-based, M. tuberculosis
Conditions: PMA-differentiated THP-1, MOI 10, CFU at 90 hr

Structure (SMILES) | H37Rv % Inhibition at 500 nM [%]
O=C(OC1CCN(Cc2ccccc2)CC1)C(O)(c1ccccc1)c1ccccc1 | 46
O=C(O[C@@H]1CCCN(Cc2ccccc2)C1)C(O)(c1ccccc1)c1ccccc1 | 79
O=C(OC1CCN(Cc2ccccc2)C1)C(O)(c1ccccc1)c1ccccc1 (centres unmarked) | 46
CC(C)NC(=O)N1CCCC(OC(=O)C(O)(c2ccccc2)c2ccccc2)C1 (centres unmarked) | 51
CS(=O)(=O)N1CCCC(OC(=O)C(O)(c2ccccc2)c2ccccc2)C1 (centres unmarked) | 55
